Experimental findings from patent US20240209092A1, “COMBINATION THERAPIES FOR TREATING CANCER” (ADAGENE INC., priority 2021, published 2024) are described below.

The assay has as its system human PBMCs. As to the kind of experiment: SEA-stimulated human T cell activation in PBMC (IL-2 ELISA). The format is cell-based. The following applies: PBMCs from one healthy donor, SEA 50 ng/mL, 4 days. (In general: ELISA stands for enzyme-linked immunosorbent assay.)

B1: TY22404: activatable anti-CTLA4 fully human IgG1 antibody prodrug (SAFEbody); heavy chain SEQ ID NO:320, masked light chain SEQ ID NO:322 (antibody)
heavy: EVQLVESGGGLVQPGGSLRLSCAASGYSISSGYHWSWIRQAPGKGLEWLARIDWDDDKYYSTSLKSRLTISRDNSKNTLYLQLNSLRAEDTAVYYCARSYVYFDYWGQGTLVTVSSASTKGPSVFPLAPSSKSTSGGTAALGCLVKDYFPEPVTVSWNSGALTSGVHTFPAVLQSSGLYSLSSVVTVPSSSLGTQTYICNVNHKPSNTKVDKKV[gap - human IgG1 Fc]
light: EVGSYPNPSSDCVPYYYACAYSGRSAGGGGTPLGLAGSGGSDIQLTQSPSSLSASVGDRVTITCRASQSVRGRFLAWYQQKPGKAPKLLIYDASNRATGIPSRFSGSGSGTDFTLTISSLQPEDFATYYCQQSSSWPPTFGQGTKVEIKRTVAAPSVFIFPPSDEQLKSGTASVVCLLNNFYPREAKVQWKVDNALQSGNSQESVTEQDSKDSTYSLSSTLTLSKADYEKHKVYACEVTHQGLSSPVTKSFNRGEC
As for B1, the “SEA peptide-stimulated IL-2 cytokine release” value is on record as “no such activity”.
